Pooled drug test results. Numbers come from NIAID ChemDB, via PubChem.

All rows: growth or infection tests

Lines come from different laboratories, so protocols vary. Percent inhibition refers to the dose given; in toxicity tests it is the harm to the cells. ECn: concentration that inhibits the pathogen or its effect by n%. An empty or dashed field is not shown. a–b is a range or a potency band.

compound	cells	strain or isolate	agent	measure	tested at	value
CO[C@@H]1[C@@H](O[C@@H]2O[C@H](C)[C@@H](O[C@H]3C[C@@](C)(O)[C@@H](O)[C@H](C)O3)[C@H](N(C)C)[C@H]2O)[C@@H](CC=O)C[C@@H](C)[C@@H](O[C@H]2CC[C@H](N(C)C)[C@H](C)O2)/C=C/C=C/C[C@@H](C)OC(=O)C[C@H]1O	L929	Calf isolate	Cryptosporidium parvum	EC50	-	>4 µg/mL
CCN1C2=NC[C@H](C3CCCCC3)N2C[C@@H]1Cc1ccccc1	-	ATCC 32045	Cryptococcus neoformans	MIC	-	>125 µg/mL
NC12CC3CC(CC(C3)C1)C2	-	-	Cryptosporidium parvum	inhibition	100 µg/mL	56%
C1CCC([C@H]2CN3C(=NC[C@H]3C3CCCCC3)N2CCC23CC4CC(CC(C4)C2)C3)CC1	-	ATCC 32045	Cryptococcus neoformans	EC50	-	2.4 µg/mL
CC1(C)N=C(N)N=C(N)N1c1ccc(Cl)cc1	L929	Calf isolate	Cryptosporidium parvum	inhibition	0.8 µg/mL	27.97%
O=c1[nH]c(=O)n([C@H]2C[C@H](O)[C@@H](CO)O2)cc1/C=C/Br	-	-	Cryptosporidium parvum	inhibition	25 µg/mL	13%
C1CCC(C[C@H]2CN=C3N(CCC45CC6CC(CC(C6)C4)C5)[C@@H](CC4CCCCC4)CN32)CC1	-	ATCC 32045	Cryptococcus neoformans	MIC	-	8–16 µg/mL
COC(=O)Nc1nc2ccc(C(=O)c3cccs3)cc2[nH]1	-	ATCC 14116	Cryptococcus neoformans	EC90	-	0.29 µg/mL
CO[C@H]1O[C@@H](n2ccc(=O)[nH]c2=O)C[C@@H]1N=[N+]=[N-]	-	-	Cryptosporidium parvum	inhibition	50 µg/mL	12%
CCCc1ncc(C[n+]2ccccc2C)c(N)n1	L929	Calf isolate	Cryptosporidium parvum	inhibition	0.8 µg/mL	36.6%
CC(=O)N[C@@H](CC(C)C)C(=O)N[C@@H](CC(C)C)C(=O)N[C@H](C=O)CCCN=C(N)N	-	-	Cryptosporidium parvum	inhibition	3.125 µg/mL	41.3%
CC(C)(C)C1CCC(CN2C3=NC[C@H](CC4CCCCC4)N3C[C@@H]2CC2CCCCC2)CC1	-	ATCC 32045	Cryptococcus neoformans	EC50	-	2.2 µg/mL
O=c1[nH]c(=O)n([C@H]2C[C@H](O)[C@@H](CO)O2)cc1C(F)(F)F	-	-	Cryptosporidium parvum	inhibition	1 µg/mL	89%
CCCCN(CCCC)CCC(O)c1cc2c(Cl)cc(Cl)cc2c2cc(C(F)(F)F)ccc12	L929	Calf isolate	Cryptosporidium parvum	inhibition	4 µg/mL	63.58%
Nc1nc(=O)n([C@H]2C[C@H](O)[C@@H](CO)O2)cc1I	-	-	Cryptosporidium parvum	inhibition	50 µg/mL	90%
Cc1cn([C@H]2C[C@H](N=[N+]=[N-])[C@@H](CO)O2)c(=O)[nH]c1=O	L929	Calf isolate	Cryptosporidium parvum	inhibition	0.032 µg/mL	-19.41%
CCCCNC(=O)n1c(NC(=O)OC)nc2ccccc21	-	IU4	Cryptococcus neoformans	EC90	-	3.7 µg/mL
CCN1C2=NC[C@H](Cc3ccccc3)N2C[C@@H]1CC1CCCCC1	-	ATCC 32045	Cryptococcus neoformans	MIC	-	62–125 µg/mL
Nc1ncnc2c1ncn2[C@@H]1O[C@H](CO)[C@@H](O)[C@@H]1O	-	-	Cryptosporidium parvum	inhibition	100 µg/mL	5%
C1CCC(C[C@@H]2CN=C3N2C[C@@H](C2CCCCC2)N3CCC23CC4CC(CC(C4)C2)C3)CC1	-	ATCC 32045	Cryptococcus neoformans	MIC	-	8–16 µg/mL
COC(=O)Nc1nc2ccc(Sc3ccccc3)cc2[nH]1	-	ATCC 14116	Cryptococcus neoformans	EC50	-	0.016 µg/mL
CC(C)(C)C1CCC(CN2C3=NC[C@@H](C4CCCCC4)N3C[C@@H]2CC2CCCCC2)CC1	-	ATCC 32045	Cryptococcus neoformans	EC50	-	2.8 µg/mL
CCN(CC)CCCC(C)Nc1ccnc2cc(Cl)ccc12	L929	Calf isolate	Cryptosporidium parvum	inhibition	0.032 µg/mL	21.14%

The first 3 rows once more:

| compound | cells | strain or isolate | agent | measure | tested at | value |
|---|---|---|---|---|---|---|
| CO[C@@H]1[C@@H](O[C@@H]2O[C@H](C)[C@@H](O[C@H]3C[C@@](C)(O)[C@@H](O)[C@H](C)O3)[C@H](N(C)C)[C@H]2O)[C@@H](CC=O)C[C@@H](C)[C@@H](O[C@H]2CC[C@H](N(C)C)[C@H](C)O2)/C=C/C=C/C[C@@H](C)OC(=O)C[C@H]1O | L929 | Calf isolate | Cryptosporidium parvum | EC50 | - | >4 µg/mL |
| CCN1C2=NC[C@H](C3CCCCC3)N2C[C@@H]1Cc1ccccc1 | - | ATCC 32045 | Cryptococcus neoformans | MIC | - | >125 µg/mL |
| NC12CC3CC(CC(C3)C1)C2 | - | - | Cryptosporidium parvum | inhibition | 100 µg/mL | 56% |